Results of unrelated studies side by side (data: NIAID ChemDB).

Shared fields: cytotoxicity tests; cells: C8166; read by: MTT; read-out: CC50

CCn: concentration that lowers growth or viability of the cells by n%. Lines come from different laboratories, so protocols vary.

structure	result
C/C(=N\NC(=O)c1ccccc1)c1cn(S(=O)(=O)c2ccc(Cl)cc2)c2ccc([N+](=O)[O-])cc12	>200 µg/mL
CCc1c(Cc2cccc3ccccc23)nc(Sc2cccs2)[nH]c1=O	280 µM
C/C(=C/[C@H]1C[C@](C)(O)C2[C@@H](C[C@@]3(C)[C@@H]4CC=C5[C@@H](C[C@H](O)[C@@H](O)C5(C)C)[C@]4(C)C(=O)C[C@]23C)O1)CO	444.9 µM
C=C1CC[C@@H]2[C@](C)(CO)[C@H](O)CC[C@@]2(C)[C@@H]1CC(OC(=O)/C=C/c1ccc2c(c1)OCO2)C1CCOC1=O	4.715 µM
CN(Cc1ncccc1CCC#N)Cc1c[nH]c2ccccc12	>10 µM
C=C(C)[C@@H]1CC[C@@H]2C(=CC[C@]3(C)[C@@H]([C@H](C)CC/C=C(/C)C(=O)O)CC[C@@]23C)[C@@]1(C)CCC(=O)O	49.19 µg/mL
CN(Cc1nc2ccccc2[nH]1)Cc1ncccc1CCC(=O)N(C)C	>10 µM
CC(CCC=C(CO)CO)C1CC[C@@]2(C)[C@@H]3CC=C4[C@@H](CCC(O)C4(C)C)[C@]3(C)C(O)C[C@]12C	403.8 µM
Cc1ccsc1CN(CCCCN)Cc1nc2nccc(N3CCN(C)CC3)c2[nH]1	>10 µM
O=[N+]([O-])c1ccc(OCc2ccccc2)cc1	183 µg/mL
CC(C)c1c(Cc2cccc3ccccc23)nc(SCCc2ccccc2)[nH]c1=O	>482 µM
COc1cc(O)c(CC=C(C)C)c(O)c1C(=O)/C=C/c1ccc(O)cc1	21.51 µM
CC(C)c1c(Cc2ccccc2)nc(SCCc2ccccc2)[nH]c1=O	>549 µM
CN1CCN(c2ccnc3nc(CN(CCCCN)Cc4ccco4)[nH]c23)CC1	>10 µM
CCc1c(Cc2ccccc2)nc(SCC(=O)c2ccc(OC)cc2)[nH]c1=O	>507 µM
C=C1CC[C@@H]2[C@](C)(CO)[C@H](O)CC[C@@]2(C)[C@@H]1CC(OC(C)=O)C1CCOC1=O	5.971 µM
C=C(C)[C@@]12OC3(C)O[C@@H]1[C@@H]1[C@H](O)[C@@](C)(O)[C@@H](O)[C@@]4(O)[C@@H](C=C(C)[C@@H]4OC(C)=O)[C@@]1(O3)[C@H](C)[C@@H]2OC(=O)c1ccccc1	56.5 µg/mL
COc1cc([C@H]2O[C@@H](c3ccc(O)c(OC)c3)[C@@H](CO)[C@@H]2C)ccc1O	>200 µg/mL
Cc1ccc2c(/C=N/NC(=O)c3ccccc3)cn(S(=O)(=O)c3ccc(Cl)cc3)c2c1	0.68 µg/mL
c1ccc(COc2ccccc2)cc1	198 µg/mL
Cc1cccc(C)c1-c1cccnc1CN(CCCCN)Cc1nc2nccc(N3CCN(C)CC3)c2[nH]1	>10 µM
C=C(C)[C@@H]1CC[C@@H]2[C@]3(CC[C@]4(C)[C@@H]([C@H](C)CC/C=C(/C)C(=O)O)CC[C@@]24C)C[C@]13CCC(=O)O	58.93 µg/mL
CCc1c(Cc2cccc3ccccc23)nc(SCC(=O)c2ccco2)[nH]c1=O	201 µM
CN1CCN(c2ccnc3nc(CN(CCCCN)Cc4cccnc4)[nH]c23)CC1	>10 µM
C/C(=N\NC(=O)c1ccccc1)c1cn(S(=O)(=O)c2ccccc2)c2cc(C)ccc12	>200 µg/mL
COc1cc([C@H](O)[C@@H](C)Oc2c(O)cc(CC(C)C(C)Cc3cc(O)c(OC)c(OC)c3)cc2OC)ccc1O	>107 µg/mL
CC(C)c1c(Cc2cccc3ccccc23)nc(Sc2cccs2)[nH]c1=O	230 µM
C=C1CC[C@@H]2[C@](C)(CO)[C@H](O)CC[C@@]2(C)[C@@H]1CC(OC(=O)c1ccc([N+](=O)[O-])cc1)C1CCOC1=O	4.726 µM
Cc1c(Cc2cccc3ccccc23)nc(SCCc2ccccc2)[nH]c1=O	>517 µM
C=C(C)[C@@]12OC3(c4ccccc4)O[C@@H]1[C@@H]1[C@H](O)[C@@](C)(O)[C@@H](OC(C)=O)[C@@]4(O)[C@@H](C[C@H](C)[C@@H]4O)[C@@]1(O3)[C@H](C)[C@@H]2OC(=O)c1ccccc1	9.76 µg/mL
C=C1CC[C@@H]2[C@](C)(CO)[C@H](O)CC[C@@]2(C)[C@@H]1CCC1C(=O)NCC1O	>569 µM
Cc1cccc(OCc2ccccc2)c1	135 µg/mL
CC[C@]1(O)[C@@H](C)Cc2cc(OC)c(OC)c(OC)c2-c2c(cc(OC)c(OC)c2OC)[C@@H]1OC(=O)c1cccnc1	>200 µg/mL
CC(C)c1c(Cc2ccccc2)nc(SCC(=O)c2ccco2)[nH]c1=O	>543 µM
O=C(N/N=C/c1cn(S(=O)(=O)c2cccc([N+](=O)[O-])c2)c2ccccc12)c1ccccc1	27.09 µg/mL
COc1ccc(CCSc2nc(Cc3cccc4ccccc34)c(C(C)C)c(=O)[nH]2)cc1	112 µM
C[C@H]1C[C@@]2(OC1=O)O[C@@]13O[C@]4(CC[C@@]5(C)C(=O)[C@H](C)[C@@H]2[C@@H]15)C[C@@]12OC(=O)C[C@@H]1O[C@](C)(CO)[C@H]2CCC4=C3O	>200 µg/mL

For reference, 2 entries again:

Cc1ccc2c(/C=N/NC(=O)c3ccccc3)cn(S(=O)(=O)c3ccc(Cl)cc3)c2c1 ; result: 0.68 µg/mL
COc1cc([C@H](O)[C@@H](C)Oc2c(O)cc(CC(C)C(C)Cc3cc(O)c(OC)c(OC)c3)cc2OC)ccc1O ; result: >107 µg/mL